Values quoted from earlier work, collected in publication PMC9448872, “Ligand-bound integrin αvβ6 internalisation and trafficking” (Frontiers in Cell and Developmental Biology, 2022).

Chains of the proteins cited; added tags and fusions are not shown. Residues count along the entry.
UniProt P06756, 31-1048: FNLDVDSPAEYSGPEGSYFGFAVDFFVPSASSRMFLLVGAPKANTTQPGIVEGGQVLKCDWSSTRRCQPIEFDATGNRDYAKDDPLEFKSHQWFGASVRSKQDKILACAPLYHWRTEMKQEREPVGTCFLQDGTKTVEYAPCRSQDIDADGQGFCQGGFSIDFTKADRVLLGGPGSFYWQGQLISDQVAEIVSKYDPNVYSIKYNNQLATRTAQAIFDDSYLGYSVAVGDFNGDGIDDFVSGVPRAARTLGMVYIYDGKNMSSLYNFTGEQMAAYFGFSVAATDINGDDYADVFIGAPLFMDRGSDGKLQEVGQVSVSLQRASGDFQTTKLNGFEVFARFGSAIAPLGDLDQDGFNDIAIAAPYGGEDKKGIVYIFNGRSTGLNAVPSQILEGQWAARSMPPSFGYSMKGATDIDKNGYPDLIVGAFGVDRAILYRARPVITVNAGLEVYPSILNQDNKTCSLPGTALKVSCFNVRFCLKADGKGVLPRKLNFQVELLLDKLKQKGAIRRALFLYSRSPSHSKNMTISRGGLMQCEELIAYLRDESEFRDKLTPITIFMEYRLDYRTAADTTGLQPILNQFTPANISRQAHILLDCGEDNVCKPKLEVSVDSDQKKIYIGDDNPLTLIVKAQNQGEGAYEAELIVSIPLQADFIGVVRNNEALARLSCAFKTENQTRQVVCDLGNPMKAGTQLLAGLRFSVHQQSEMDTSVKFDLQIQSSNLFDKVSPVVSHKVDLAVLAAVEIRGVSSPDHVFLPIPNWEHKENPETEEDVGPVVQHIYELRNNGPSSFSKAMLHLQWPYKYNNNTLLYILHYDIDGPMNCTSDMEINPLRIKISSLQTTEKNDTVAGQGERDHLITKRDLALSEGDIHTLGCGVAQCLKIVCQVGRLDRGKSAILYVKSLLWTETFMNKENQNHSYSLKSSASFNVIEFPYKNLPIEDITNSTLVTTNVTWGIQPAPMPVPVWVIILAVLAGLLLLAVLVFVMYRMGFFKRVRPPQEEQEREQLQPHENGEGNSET

Molecular target: αvβ6-specific 20-mer peptide (A20FMDV2) (Foot-and-mouth disease virus)
Conditions: cited from earlier work

For integrin αvβ6 (from UniProt P06756), the Kd is given as 1.7 nM.
